Measured values from several laboratories, pooled; numbers as filed in NIAID ChemDB.

Shared fields: tests in culture; organism: HIV-1; cell line: MT-2; read-out: EC50

Lines come from different laboratories, so protocols vary. Blank or dashed fields: not listed here. ECn is the concentration giving n% inhibition of infection, replication or growth.

smiles | strain or isolate | mutations | read by | result
Cc1cn([C@H]2C[C@H](N=[N+]=[N-])[C@@H](CO)O2)c(=O)[nH]c1=O | NL4-3 | RT-I178L T215Y | p24 | 0.003 µM
O=c1[nH]cnc2c1ncn2[C@H]1CC[C@@H](CO)O1 | - | RT-T69G | p24 | 2.564 µM
Cc1cn([C@H]2C[C@H](N=[N+]=[N-])[C@@H](CO)O2)c(=O)[nH]c1=O | IIIB | M200I | p24 / ELISA | 0.153 µM
Nc1n[nH]c2ccc(CN3C(=O)N(Cc4ccccc4)[C@H](Cc4ccccc4)[C@H](O)[C@H]3CCc3ccccc3)cc12 | RF | - | cytopathic effect / MTT | <0.071 µM
Nc1nc(NC2CC2)c2ncn([C@H]3C=C[C@@H](CO)C3)c2n1 | Site-directed mutant | RT-Q151M | cytopathic effect / XTT | 5.25 µM
Cc1cn([C@H]2C=C[C@@H](CO)O2)c(=O)[nH]c1=O | Site-directed mutant | RT-K65R | cytopathic effect / XTT | 14.74 µM
CCOP(=O)(COc1ccc(C[C@H](NC(=O)O[C@H]2CO[C@H]3OCC[C@H]32)[C@H](O)CN(CC(C)C)S(=O)(=O)c2ccc(OC)cc2)cc1)OCC | IIIB | LPV-P31 lopinavir-resistant mutant | ATP | 0.0048 µM
CC(C)OC(=O)OCOP(=O)(CO[C@H](C)Cn1cnc2c(N)ncnc21)OCOC(=O)OC(C)C | 1391-4 high AZT resistance (RT D67 K70 T215) | RT-D67 K70 T215 | p24 | 0.006 µM
Cc1cn([C@H]2C[C@H](N=[N+]=[N-])[C@@H](CO)O2)c(=O)[nH]c1=O | RT P119S V179D L214F | RT-P119S V179D L214F | p24 | 0.015 µM
Nc1nc2c(ncn2[C@H]2CO[C@@H](CO)O2)c(=O)[nH]1 | IIIB | - | cytopathic effect / XTT | 1 µM
Nc1ccn([C@H]2CC[C@@H](CO)O2)c(=O)n1 | L214F(RT-L214F) | RT-L214F | p24 | 0.48 µM
COC(=O)N[C@H](C(=O)N[C@@H](Cc1ccccc1)[C@@H](O)CN(Cc1ccc(-c2ccccn2)cc1)NC(=O)[C@@H](NC(=O)OC)C(C)(C)C)C(C)(C)C | IIIB | K112M K113E V128I M200I H219P I401T R409K D437N L441P | p24 / ELISA | 0.0033 µM
CCc1c(Sc2ccccc2)n(COCc2ccccc2)c(=O)[nH]c1=O | IIIB | - | cytopathic effect | 0.02 ± 0.006 µM
O=C1N(Cc2ccccc2)[C@H](CCc2ccccc2)[C@@H](O)[C@@H](Cc2ccccc2)N1Cc1ccccc1 | RF | - | cytopathic effect / MTT | <2.8 µM
O=c1[nH]cnc2c1ncn2[C@H]1CC[C@@H](CO)O1 | P119S(RT-P119S) | RT-P119S | p24 | 1.3 µM
CCc1c([Se]c2ccccn2)n(COCc2ccccc2)c(=O)[nH]c1=O | Nevirapine-resistant | - | cytopathic effect | 1 ± 0.01 µM
Nc1nc(NC2CC2)c2ncn([C@H]3C=C[C@@H](CO)C3)c2n1 | - | RT-K103N | p24 | 0.032 µM
Cc1cn([C@H]2C[C@H](N=[N+]=[N-])[C@@H](CO)O2)c(=O)[nH]c1=O | HXB2 | - | cytopathic effect / XTT | 0.2 µM
CC(C)(C)OC(=O)N[C@@H](Cc1ccccc1)[C@H](O)CNC[C@@H](O)[C@H](Cc1ccc(OCC(=O)N2CCOCC2)cc1)NC(=O)OC(C)(C)C | RF | - | - | 0.4 µM
CC(C)=CCN1Cc2cccc3[nH]c(=S)n(c23)C[C@@H]1C | IIIB | - | cytopathic effect | 0.23 ± 0.04 µM
N/C(=N\O)c1cccc(CN2C(=O)N(Cc3cccc(N)c3)[C@H](Cc3ccccc3)[C@H](O)[C@H]2CCc2ccccc2)c1 | RF | - | cytopathic effect / MTT | <0.017 µM
Nc1ncnc2c1ncn2CCOCP(=O)(O)O | LAI | - | cytopathic effect / XTT | 14.2 µM
Nc1nc2c(ncn2[C@H]2CO[C@@H](CO)O2)c(=O)[nH]1 | - | RT-Q151M A62V | cytopathic effect / MTT | >50 µM
Cc1[nH]nc2ccc(CN3C(=O)N(Cc4cccc(N)c4)[C@H](Cc4ccccc4)[C@H](O)[C@H]3CCc3ccccc3)cc12 | RF | - | cytopathic effect / MTT | <0.032 µM
Nc1ncnc2c1ncn2CCOCP(=O)(O)O | RT P119S V179D L214F | RT-P119S V179D L214F | p24 | 1.2 µM
Cc1cn([C@H]2C=C[C@@H](CO)O2)c(=O)[nH]c1=O | Clinical isolate | D67N/T69N/K70R/A98G/M184V/G190S/T215F/K219Q | recombinant virus assay | 1.344 µM
Nc1nc2c(ncn2[C@H]2CO[C@@H](CO)O2)c(=O)[nH]1 | - | - | - | 0.18 µM
Cc1cn([C@H]2C[C@H](N=[N+]=[N-])[C@@H](CO)O2)c(=O)[nH]c1=O | LAI WT | - | cytopathic effect / MTT | 0.5 µM
Nc1nc(NC2CC2)c2ncn([C@H]3C=C[C@@H](CO)C3)c2n1 | Site-directed mutant | RT-K65R M184V | cytopathic effect / XTT | >3.44 µM
Nc1nc(=O)n([C@@H]2CS[C@H](CO)O2)cc1F | Clinical isolate | A62V/T69ins/V75I/A98G/K103S/G190A | recombinant virus assay | 2.709 µM

Repeating the final 2 entries:

smiles,strain or isolate,mutations,read by,result
Nc1nc(NC2CC2)c2ncn([C@H]3C=C[C@@H](CO)C3)c2n1,Site-directed mutant,RT-K65R M184V,cytopathic effect / XTT,>3.44 µM
Nc1nc(=O)n([C@@H]2CS[C@H](CO)O2)cc1F,Clinical isolate,A62V/T69ins/V75I/A98G/K103S/G190A,recombinant virus assay,2.709 µM